Patent publication US20200147199A1 (ROCKEFELLER UNIVERSITY, published 2020)

B1: Z057 (MEX84_p4-54) (antibody, V domains shown)
VH: EVQLVQSGAEVKRPGASVKVSCKASGYTFADYYIHWVRQAPGLGLEWMGWINPKTGFSHYEQTFQGRVTMARDTSIPAAYMELSSLKSDDTAIYYCARGGRINVAEALRYWGQGSLVTVSS
VL: DIQMTQSPSTLSTFVGDRVTITCRASQTIGDWLAWYQQKPGKAPKLLISKATRLESGVPSRFSGSGSETEFSLTINSLQPDDVAAYYCQQYMSYPWTFGQGTKLEIK
B2: Z059 (MEX84_p4-34) (antibody, V domains shown)
VH: EVQLVQSGAEVKTPGSSVKVSCKTSGGTFSNFAITWVRQAPGQGLEWMGGIIPLFGITNYTQKFQGRVTITTDESKTTAYMDLSGLRSEDTAVYFCARGRDSSGRLLDHWGQGTLVTVSS
VL: EIVMTQSPATLSVSPGERATLSCRASQTVNRNLAWYQQKPGQAPRLLIYAASARATGVPARFSGSGSGTEFTLTISSLQSEDFVVYYCQQYNNWPPLTFGGGTKLEIK
B3: Z053 (BRA138_65) (antibody, V domains shown)
VH: QLQLQESGPGLVKPSETLSLTCTVSGGSISSYNYYWGWIRQPPGKGLEFIGSIYYTGSTYYNPSLRSRVTISVDTSKNQFSLKLTSVTAADTAVYYCARHGPGMGHNWYFDLWGRGTLVTVSS
VL: EIVLTQSPATLSLSPGERATLSCRASQSISSYLAWYQQKPGQAPRLLIYDASNRAPGIPARFSGSGSGTDFTLTISSLEPEDFAVYYCQQRSTWLTFGGGTKVEIK
B4: Z061 (BRA112_36) (antibody, V domains shown)
VH: EVQLVESGGGVVQPGRSLRLSCAASGFTFSISTIHWVRQAPGKGLEYVVVISHDGNTKYYADSVKGRFIISRDNSKNTVFLQMNSLRPVDTAVYYCARGEVGYFDLWGRGTLVTVSS
VL: EIVLTQSPATLSLSPGERATLSCRASQSVSSFLAWYQQKPGQPPRLLIYDASTRATGIPARFSGSGSGTDFTLTISSLEPEDFAVYYCQQRSNWPPITFGQGTRLEIK
B5: Z062 (BRA112_70) (antibody, V domains shown)
VH: EVQLVESGGGVVQPGRSLRLSCAASGFSFSSHAMYWVRQAPGKGLEWVAIVSYDGSTKNYADSVKGRFTISRDNSKNTIYLHLNSLRAEDTAVYFCAREVDGIYGYLHYWGQGTLVTVSS
VL: EIVLTQSPATLSLSPGERATLSCRARQNVRNFLAWYQQKPGQAPRLLIYDASNRATDIPARFSGSGSGTDFTLTISSLEPEDFAVYYCQQRSYSITFGQGTRLEIK
B6: Z051 (BRA138_59) (antibody, V domains shown)
VH: QVQLQESGPGLVKPSQTLSLTCTVSGVSISSGGYYYSWFRQLPGKGLEWIGHIYYTGNTHYNPSLRSRLTISVDTSKNQFSLKLSSVTAADTARYYCARAWCEYAAYCWFDPWGRGTLVTVSS
VL: EIVLTQSPGTLSLSPGERATLSCRASQSVTSSYLAWYQHKPGQAPRLLIYGASSRAPGIPDRFSGSGSGTDFTLTISRLEPEDFAVYWCQQYGRSPFTFGQGTKLEIK

Assays:
[1] = molecular target: T1, DENV1 EDIII, polyhistidine-AviTag, produced in HEK-293-6E cells (DENV1); test: cross-reactivity ELISA
T1 construct: also called EDIII of DENV1
T1 chain: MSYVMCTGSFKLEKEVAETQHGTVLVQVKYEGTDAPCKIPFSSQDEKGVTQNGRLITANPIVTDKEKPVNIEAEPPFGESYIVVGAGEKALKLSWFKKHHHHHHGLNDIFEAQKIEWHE

[2] = molecular target: T2, WNV EDIII, polyhistidine-AviTag (WNV); test: cross-reactivity ELISA
T2 chain: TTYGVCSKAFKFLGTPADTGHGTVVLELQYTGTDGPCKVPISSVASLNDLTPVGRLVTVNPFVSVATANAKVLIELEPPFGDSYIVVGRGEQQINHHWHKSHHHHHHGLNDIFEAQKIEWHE

Row | Binder | binding result [1] | binding result [2]
1 | B1 | no binding (tested: 10 µg/ml) | binds
2 | B2 | no binding (tested: 10 µg/ml) | binds
3 | B3 | no binding (tested: 10 µg/ml) | no binding (tested: 10 µg/ml)
4 | B4 | no binding (tested: 10 µg/ml) | no binding (tested: 10 µg/ml)
5 | B5 | no binding (tested: 10 µg/ml) | no binding (tested: 10 µg/ml)
6 | B6 | no binding (tested: 10 µg/ml) | no binding (tested: 10 µg/ml)
